Data source: PubChem BioAssay AID504761 (Drosophila RNAi Screening Center, 2011)
In all, the deposit lists about 22,000 reagents; below is an unselected part of those with a known target gene and a result. Over the whole deposit, 116 (0.52%) are marked active. 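Calls depend on retest data that are not deposited; infection was ranked per plate without normalising between plates; the unit of the infection score is not given.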 The raw values are shown without normalisation. The numbers tell different reagents against one gene apart. Further read-outs or replicates are left out here. Not given: the amount of reagent, the time to read-out.

Purpose: 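Fly genes whose silencing reduces dengue virus type 2 infection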 (primary screen)
Cells: D.Mel-2 cells from Drosophila
Knock-down reagent: long dsRNA against Drosophila genes
Challenge: infection with dengue virus type 2; dose and infection time not stated
Measurement: 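Per well on two replicate plates, imaging gave the percent of cells positive for viral envelope protein, ranked by infection, and a nuclear count of cells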
Direction: infection score: higher = more virus-infected cells; cell count: higher = more cells in the well
Active means: 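Low infection ranks in the two replicates (chance level up to 0.065) followed by a retest with a 1.5-fold or larger significant decrease, p below 0.05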
Calls: active = confirmed: knock-down lowers infection; inactive = not picked or not confirmed

| predicted target | reagent no. | infection score, replicate 1 | infection score, replicate 2 | cell count, replicate 1 | outcome |
| --- | --- | --- | --- | --- | --- |
| CG43867 | 1 | 5.23 | 2.3 | 1338 | inactive |
| CG43867 | 2 | – | 13.8 | 443 | inactive |
| CG43867 | 3 | 8.12 | 10.6 | 3339 | inactive |
| CG43867 | 4 | 18.8 | 4.46 | 6261 | inactive |
| w | 1 | 8.8 | 6.51 | 3464 | inactive |
| w | 2 | 5.98 | 3.1 | 6272 | inactive |
| Nepl9 | 1 | 7.71 | 3.73 | 5722 | inactive |
| CG1690 | 1 | 8.13 | 27.5 | 6830 | inactive |
| abo | 1 | 0.94 | 2.33 | 6726 | inactive |
| CG31678 | 1 | 12.4 | 15.7 | 6663 | inactive |
| CG31678 | 2 | 3.23 | 20.2 | 6542 | inactive |
| CG4362 | 1 | 4.65 | 0.63 | 6446 | inactive |
| Nna1 | 1 | 12.8 | 2.07 | 6285 | inactive |
| Nna1 | 2 | 13.3 | 5.58 | 6304 | inactive |
| Ca-beta | 1 | – | – | 595 | inactive |
| Ca-beta | 2 | – | 4.47 | 412 | inactive |
| Ca-beta | 3 | – | – | 425 | inactive |
| Ca-beta | 4 | 1.23 | 4.04 | 6035 | inactive |
| Ca-beta | 5 | 11.8 | 21.4 | 6317 | inactive |
| ics | 1 | 20.3 | 14.2 | 5695 | inactive |
| ics | 2 | 9.88 | 14.7 | 3704 | inactive |
| CTCF | 1 | 3.28 | 1.17 | 6312 | inactive |
| CTCF | 2 | 14.8 | 21.8 | 2304 | inactive |

An excerpt from above, limited to “cell count, replicate 1”.
Nna1 #2 = 6304
Ca-beta #1 = 595
